Laboratory results: publication PMC12377726, “Structural insights into VRC01-class bnAb precursors with diverse light chains elicited in the IAVI G001 human vaccine trial” (Proceedings of the National Academy of Sciences of the …, 2025)

Molecular target: T1, eOD-GT8 (engineered outer domain germline-targeting version 8), monomer (HIV-1 gp120 engineered outer domain, …)
T1 chain: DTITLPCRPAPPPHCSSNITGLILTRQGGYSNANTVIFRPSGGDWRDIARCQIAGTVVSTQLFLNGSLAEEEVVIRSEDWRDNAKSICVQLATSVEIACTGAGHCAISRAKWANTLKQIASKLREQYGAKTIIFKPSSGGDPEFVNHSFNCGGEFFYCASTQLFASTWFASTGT
Test: SPR
Conditions: both partners purified

B1: G001_LD_V05_VRC01c_14 (antibody, V domains shown)
VH: not shown
VL: DIQMTQSPSSLSASVGDRVTITCQASQDINNYLNWYQQKPGKAPKLLIYDASNLETGVPSRFSGSGSGTDFTFTISSLQPEDIATYYCQQYEFFGGGTKVEIK
  Kd: 0.37 nM
